Results of unrelated studies side by side (data: NIAID ChemDB).

All rows: enzyme or target tests; organism: Pneumocystis carinii; target: DHFR; read-out: IC50

ICn is the concentration giving n% inhibition. Lines come from different laboratories, so protocols vary.

smiles | result
COc1ccc(-c2nc3nc(N)nc(N)c3[nH]2)c(OC)c1OC | >17 µM
CN(Cc1cnc2nc(N)nc(N)c2n1)c1ccc(C(=O)N[C@@H](CCC(=O)O)C(=O)O)cc1C(F)(F)F | 0.00031 µM
Nc1nc(N)c2cc(CN3c4ccccc4C=Cc4ccccc43)cnc2n1 | 0.043 µM
COc1cc(Cc2cnc(N)nc2N)cc(OCCCC(CCC(=O)O)C(=O)O)c1Br | 0.043 µM
CC1(C)N=C(N)N=C(N)N1c1ccc(OCC(=O)Nc2ccccc2)c(Cl)c1 | 0.3 µM
COc1cc(Cc2cnc(N)nc2N)cc(OCCC(=O)NCC(=O)O)c1Br | 10 µM
CN(C)C(=O)c1cccc(COc2ccc(N3C(N)=NC(N)=NC3(C)C)cc2Cl)c1 | 0.021 µM
CCc1nc(NS(C)(=O)=O)nc(NS(C)(=O)=O)c1-c1ccc(Cl)cc1 | 1.4 µM
COc1cc(CCCN2CCc3nc(N)nc(N)c3C2)cc(OC)c1OC | 9.3 µM
COc1ccc(Cc2cnc(N)nc2N)cc1OCCNS(=O)(=O)c1ccc(N)cc1 | 0.57 µM
CN(Cc1cnc2nc(N)nc(N)c2n1)c1ccc(C(=O)N[C@@H](CCC(=O)O)C(=O)O)c2ccccc12 | 0.00019 µM
c1ccc(Oc2nc(Oc3ccccc3)nc(Oc3ccccc3)n2)cc1 | 130 µM
CN(Cc1cnc2nc(N)nc(N)c2n1)c1c(Cl)cc(C(=O)N[C@@H](CCC(=O)O)C(=O)O)cc1Br | 0.00021 µM
Nc1nc(N)c2nc(CNc3ccc4cc(Cl)ccc4c3)cnc2n1 | 44 µM
Nc1nc(N)c2nc(CN(CCO)c3ccc(C(=O)NC(CCC(=O)O)C(=O)O)cc3)cnc2n1 | 0.00035 µM
COc1cc(CN2CCc3nc(N)nc(N)c3C2)c(Br)c(OC)c1OC | 0.51 µM
CC1(C)N=C(N)N=C(N)N1c1ccc(OCCNS(=O)(=O)c2cccc(S(=O)(=O)F)c2)c(Cl)c1 | 0.34 µM
Nc1nc(N)c2cc(CN3c4ccccc4C=Cc4ccccc43)ccc2n1 | 0.037 µM
CC(=O)Nc1ccc(C(=O)O)c(C(=O)c2ccccc2Cl)c1 | >100 µM
CN(Cc1cnc2nc(N)nc(N)c2n1)c1c(Cl)cc(C(=O)N[C@@H](CCC(=O)O)C(=O)O)cc1Cl | 0.000035 µM
COc1ccc2nc(NC(=O)Nc3ccc(Cl)c(Cl)c3)sc2c1 | >100 µM
CCOCc1nc(N)nc(N)c1-c1ccc(Cl)c(Cl)c1 | 12.7 µM
COc1ccc(-c2nc3nc(N)nc(N)c3[nH]2)c(OC)c1 | >14 µM
COc1ccc(C(=O)c2cc(OC)c(OC)c(OC)c2)cc1OC | 100 µM
CC1(C)N=C(N)N=C(N)N1c1cccc(CCCCOc2ccccc2)c1 | 0.27 µM
Nc1nc(N)c2nc(CN3c4ccccc4CCc4ccccc43)cnc2n1 | 1.4 µM
O=C1OC2(c3ccccc31)c1ccc(O)c(O)c1Oc1c2ccc(O)c1O | 74 µM
Cc1nc2nc(N)nc(N)c2nc1CN(C)c1ccc2c(Cl)cc(Cl)cc2c1 | >10 µM
Nc1nc(N)c2[nH]c(-c3ccncc3)nc2n1 | >18 µM
CC(=O)c1ccc(NCc2cnc3nc(N)nc(N)c3n2)cc1 | 0.72 µM
COc1cc(-c2nc3nc(N)nc(N)c3[nH]2)cc(OC)c1OC | >59.4 µM
O=C1C=CC(=Nc2cc(Cl)c(O)c(Cl)c2)C=C1Cl | 226 µM